We go through two substances from patent US20140001056A1 (priority 2011, published 2014).

The chains behind the UniProt entries cited, without tags or fusion partners. Where a name states a change or a piece, a line headed by the entry shows the natural chain unless it says otherwise.
UniProt P09616: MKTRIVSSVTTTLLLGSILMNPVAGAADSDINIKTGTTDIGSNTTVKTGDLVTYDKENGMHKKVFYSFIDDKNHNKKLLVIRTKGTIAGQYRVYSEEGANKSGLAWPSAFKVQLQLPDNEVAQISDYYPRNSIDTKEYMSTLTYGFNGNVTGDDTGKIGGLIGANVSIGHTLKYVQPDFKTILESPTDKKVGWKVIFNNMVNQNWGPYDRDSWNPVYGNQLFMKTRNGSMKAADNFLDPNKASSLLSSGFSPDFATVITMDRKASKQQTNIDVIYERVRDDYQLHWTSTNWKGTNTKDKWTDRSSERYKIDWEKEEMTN

The target in assay [1] is α-HL monomer (Staphylococcus aureus, UniProt P09616). Briefly: Planar lipid bilayer recording: insertion of α-HL monomer. To be noted: above the CMC in the cis compartment.
The target of assay [2] is WT-α-HL heptamer (Staphylococcus aureus, UniProt P09616). Briefly: Planar lipid bilayer recording: insertion and function of α-HL heptamer. To be noted: for insertion of α-HL heptamer into planar lipid bilayer: above the CMC in the cis compartment; for α-HL pore insertion into planar lipid bilayer: below the CMC in the cis compartment.

For the substance “C6F13C2H4—S-poly[tris(hydroxymethyl)aminomethane]”, the “insertion of α-HL monomer into planar lipid bilayer” value in assay [1] was “complete arrest”. Moreover, in assay [2], the “insertion of α-HL heptamer into planar lipid bilayer” value is listed as “complete arrest” and the “α-HL pore insertion into planar lipid bilayer” value was “pore insertion events continued”.

With Fluorinated fos-choline, the “insertion of α-HL monomer into planar lipid bilayer” value in assay [1] is on record as “complete arrest”. Besides, the “stopping membrane insertion of α-HL heptamers (titration)” value in assay [2] (3 and 4 mM, cis) is reported as “not as effective”; in assay [2] (higher concentrations (6, 8, 9, 10 mM, cis)) it was “completely prevent”. Further, the “single-channel IV curve of α-HL” value in assay [2] (F6FC 10 mM cis) is listed as “unchanged”. Besides, the “insertion of α-HL heptamer into planar lipid bilayer” value in assay [2] is reported as “complete arrest”. In addition, the “blockades or gating changes of α-HL pores already inserted” value in assay [2] (above the CMC, cis compartment) was “did not cause blockades or changes in the gating”. Also, in assay [2], the “α-HL pore insertion into planar lipid bilayer” value is listed as “pore insertion events continued”.
